# System: Mycobacterium bovis BCG
# Assay: in vivo growth inhibition assay in M. bovis BCG
# Type: cell-based
# Settings: pSTKT, Ptet, without inducer ATc; 3 weeks; versus empty vector
smiles,measurement,value
CC[C@H](C)[C@H](NC(=O)[C@H](Cc1ccccc1)NC(=O)[C@H](CCC(N)=O)NC(=O)[C@H](C)NC(=O)[C@@H]1CCCN1C(=O)[C@@H](NC(=O)[C@H](Cc1c[nH]cn1)NC(=O)[C@H](Cc1c[nH]cn1)NC(=O)[C@H](Cc1c[nH]cn1)NC(=O)[C@H](Cc1c[nH]cn1)NC(=O)[C@H](Cc1c[nH]cn1)NC(=O)[C@H](Cc1c[nH]cn1)NC(=O)[C@@H](N)CCSC)[C@@H](C)O)C(=O)N[C@@H](Cc1ccccc1)C(=O)N[C@@H](Cc1ccccc1)C(=O)N[C@@H](CCCNC(=N)N)C(=O)N[C@H](C(=O)N[C@@H](CCCCN)C(=O)N[C@H](C(=O)N[C@@H](CCCNC(=N)N)C(=O)N[C@@H](CC(N)=O)C(=O)N[C@@H](Cc1c[nH]c2ccccc12)C(=O)N[C@@H](Cc1c[nH]cn1)C(=O)N[C@H](C(=O)N[C@@H](CO)C(=O)N[C@H](C(=O)N[C@@H](CO)C(=O)N[C@H](C(=O)N[C@@H](CCCCN)C(=O)N[C@@H](C)C(=O)N[C@@H](Cc1c[nH]c2ccccc12)C(=O)N[C@@H](CC(C)C)C(=O)N[C@@H](Cc1ccccc1)C(=O)N[C@@H](Cc1c[nH]c2ccccc12)C(=O)N[C@@H](CCCNC(=N)N)C(=O)N[C@@H](CCSC)C(=O)N[C@@H](CCCNC(=N)N)C(=O)N[C@@H](CCC(=O)O)C(=O)N[C@@H](CC(=O)O)C(=O)N[C@@H](Cc1ccccc1)C(=O)N[C@@H](CCC(N)=O)C(=O)N1CCC[C@H]1C(=O)N[C@@H](CC(=O)O)C(=O)N[C@H](C(=O)N[C@@H](CC(=O)O)C(=O)O)[C@@H](C)O)C(C)C)C(C)C)[C@@H](C)O)C(C)C)C(C)C [peptide 33],transformants obtained (in words),fewer colonies than those obtained from the transformation with the empty vector
